Measured values published in patent US11613546B2, “Substituted pyridotriazine compounds and uses thereof” (Gilead Sciences, Inc., priority 2021, dated 2023).

Test system: pLai RLuc reporter virus
Assay: HIV MT-4 serum shift antiviral reporter assay
Type: cell-based
Settings: EC50 (HS/CCM)/EC50 (CCM) fold shift, measure of protein binding
Protocol: To quantify the amount of protein binding to human serum, compounds were serially diluted (1:3) in DMSO and acoustically transferred onto 384-well assay plates via a Labcyte ECHO robot. Each plate contained up to 8 test compounds, including negative and positive controls, (DMSO, 5 μM AZT respectively). Assay plates were prepared in duplicate, and tested in either CCM (cell culture media) or HS/CCM (human serum/cell culture media). MT-4 cells were first pre-infected with pLai RLuc reporter virus for 2 h at 37° C., then further diluted in either CCM (RPMI media, 10% FBS, 1% P/S) or HS/CCM (RPMI media, 10% FBS, 50% HS, 1% P/S), and subsequently added to each plate using a Biotek Micro Flow dispenser. After a 72-h incubation in a humidified and temperature controlled incubator (37° C.), Renilla Glo (Promega) was added to all assay plates and chemiluminescence read using an Envision plate-reader. EC50 values were defined as the compound concentration that causes a 50% decrease in luminescence signal, and were calculated using a sigmoidal dose-response model to generate curve fits. To determine the amount of protein binding, EC50 fold shifts (or EC50 shifts) were calculated by dividing EC50 (HS/CCM)/EC50 (CCM).

## C[C@H]1C=C[C@H](C)N2CN1C(=O)c1c(O)c(=O)c(C(=O)NCc3c(F)cc(F)cc3F)cn12 [Example C25, (1S,2S,5S)-8-hydroxy-2,5-dimethyl-7,9-dioxo-N-(2,4,6-trifluorobenzyl)-2,5,7,9-tetrahydro-1,6-methanopyrido[1,2-b][1,2,5]triazonine-10-carboxamide]
  RLUC Shift: 147

## C[C@@H]1CCC[C@H](C)N2CN1n1cc(C(=O)NCc3c(F)cc(F)cc3F)c(=O)c(O)c1C2=O [Example C21, (1R,2S,6S)-9-hydroxy-2,6-dimethyl-8,10-dioxo-N-(2,4,6-trifluorobenzyl)-3,4,5,6,8,10-hexahydro-2H-1,7-methanopyrido[1,2-b][1,2,5]triazecine-11-carboxamide]
  RLUC Shift: 425

## C[C@H]1CCCCN2CN1n1cc(C(=O)NCc3ccc(F)cc3F)c(=O)c(O)c1C2=O [Example C40, (1S,2S)—N-(2,4-difluorobenzyl)-9-hydroxy-2-methyl-8,10-dioxo-3,4,5,6,8,10-hexahydro-2H-1,7-methanopyrido[1,2-b][1,2,5]triazecine-11-carboxamide]
  RLUC Shift: 103

## C[C@@H]1C=C[C@@H](C)N2CN1C(=O)c1c(O)c(=O)c(C(=O)NCc3c(F)cc(F)cc3F)cn12 [Example C64, (1S,2R,5R)-8-hydroxy-2,5-dimethyl-7,9-dioxo-N-(2,4,6-trifluorobenzyl)-2,5,7,9-tetrahydro-1,6-methanopyrido[1,2-b][1,2,5]triazonine-10-carboxamide]
  RLUC Shift: 549

## C[C@@H]1C=C[C@H](C)N2CN1n1cc(C(=O)NCc3c(F)cc(F)cc3F)c(=O)c(O)c1C2=O [Example C24, (1S,2R,5S)-8-hydroxy-2,5-dimethyl-7,9-dioxo-N-(2,4,6-trifluorobenzyl)-2,5,7,9-tetrahydro-1,6-methanopyrido[1,2-b][1,2,5]triazonine-10-carboxamide]
  RLUC Shift: 747

## C[C@@H]1C=C[C@H](CF)N2CN1n1cc(C(=O)NCc3ccc(F)cc3F)c(=O)c(O)c1C2=O [Example C49a, (1S,10R,13R)—N-[(2,4-difluorophenyl)methyl]-10-(fluoromethyl)-6-hydroxy-13-methyl-5,8-dioxo-1,2,9-triazatricyclo[7.4.1.02,7]tetradeca-3,6,11-triene-4-carboxamide]
  RLUC Shift: 220

## C[C@@H]1C[C@@H](F)[C@@H](F)CN2CN1n1cc(C(=O)NCc3ccc(F)cc3F)c(=O)c(O)c1C2=O (single isomer, unassigned) [Example C38]
  RLUC Shift: 14

## C[C@@H]1C/C=C\[C@H](C)N2CN1n1cc(C(=O)NCc3c(F)cc(F)cc3F)c(=O)c(O)c1C2=O [Example C7, (1S,2R,6S,Z)-9-hydroxy-2,6-dimethyl-8,10-dioxo-N-(2,4,6-trifluorobenzyl)-3,6,8,10-tetrahydro-2H-1,7-methanopyrido[1,2-b][1,2,5]triazecine-11-carboxamide]
  RLUC Shift: 485

## C[C@@H]1C/C=C\CN2CN1n1cc(C(=O)NCc3ccc(F)cc3F)c(=O)c(O)c1C2=O [Example C11, (1S,2R,Z)—N-(2,4-difluorobenzyl)-9-hydroxy-2-methyl-8,10-dioxo-3,6,8,10-tetrahydro-2H-1,7-methanopyrido[1,2-b][1,2,5]triazecine-11-carboxamide]
  RLUC Shift: 27

## C[C@H]1CCC(C)(C)N2CN1n1cc(C(=O)NCc3ccc(F)cc3F)c(=O)c(O)c1C2=O [Example C94, (1R,2S)—N-(2,4-difluorobenzyl)-8-hydroxy-2,5,5-trimethyl-7,9-dioxo-2,3,4,5,7,9-hexahydro-1,6-methanopyrido[1,2-b][1,2,5]triazonine-10-carboxamide]
  RLUC Shift: 58

## C[C@H]1CC[C@H](C)N2CN1C(=O)c1c(O)c(=O)c(C(=O)NCc3ccc(F)cc3F)cn12 [Example C31, (1S,2S,5S)—N-(2,4-difluorobenzyl)-8-hydroxy-2,5-dimethyl-7,9-dioxo-2,3,4,5,7,9-hexahydro-1,6-methanopyrido[1,2-b][1,2,5]triazonine-10-carboxamide]
  RLUC Shift: 798

## C[C@H]1CCC[C@H](C)N2CN1C(=O)c1c(O)c(=O)c(C(=O)NCc3c(F)cc(F)cc3F)cn12 [Example C23, (1S,2S,6S)-9-hydroxy-2,6-dimethyl-8,10-dioxo-N-(2,4,6-trifluorobenzyl)-3,4,5,6,8,10-hexahydro-2H-1,7-methanopyrido[1,2-b][1,2,5]triazecine-11-carboxamide]
  RLUC Shift: 51

## C[C@H]1C=C[C@@H](CF)N2CN1C(=O)c1c(O)c(=O)c(C(=O)NCc3c(F)cc(F)cc3F)cn12 [Example C76, (1S,2S,5S)-2-(fluoromethyl)-8-hydroxy-5-methyl-7,9-dioxo-N-(2,4,6-trifluorobenzyl)-2,5,7,9-tetrahydro-1,6-methanopyrido[1,2-b][1,2,5]triazonine-10-carboxamide]
  RLUC Shift: 632

## C[C@@H]1CC[C@H](C)N2CN1n1cc(C(=O)NCc3ccc(F)cc3F)c(=O)c(O)c1C2=O [Example C37, (1S,2R,5S)—N-(2,4-difluorobenzyl)-8-hydroxy-2,5-dimethyl-7,9-dioxo-2,3,4,5,7,9-hexahydro-1,6-methanopyrido[1,2-b][1,2,5]triazonine-10-carboxamide]
  RLUC Shift: 375

## C[C@@H]1CC(F)(F)[C@H](C)N2CN1n1cc(C(=O)NCc3c(F)cc(F)cc3F)c(=O)c(O)c1C2=O [Example C35, (1S,2R,5S)-4,4-difluoro-8-hydroxy-2,5-dimethyl-7,9-dioxo-N-(2,4,6-trifluorobenzyl)-2,3,4,5,7,9-hexahydro-1,6-methanopyrido[1,2-b][1,2,5]triazonine-10-carboxamide]
  RLUC Shift: 149

## C[C@H]1C=C[C@H](C)N2CN1C(=O)c1c(O)c(=O)c(C(=O)NCc3ccc(F)cc3F)cn12 [Example C30, (1S,2S,5S)-8-hydroxy-2,5-dimethyl-7,9-dioxo-N-(2,4-difluorobenzyl)-2,5,7,9-tetrahydro-1,6-methanopyrido[1,2-b][1,2,5]triazonine-10-carboxamide]
  RLUC Shift: 89

## C[C@@H]1[C@H]2C[C@H]2[C@H](C)N2CN1n1cc(C(=O)NCc3c(F)cc(F)cc3F)c(=O)c(O)c1C2=O [Example C89, (1aS,2R,3R,11S,11aR)-8-hydroxy-2,11-dimethyl-7,9-dioxo-N-(2,4,6-trifluorobenzyl)-1a,2,7,9,11,11a-hexahydro-1H-3,10-methanocyclopropa[g]pyrido[1,2-b][1,2,5]triazonine-6-carboxamide]
  RLUC Shift: 34

## C[C@H]1/C=C\C[C@H](C)N2CN1C(=O)c1c(O)c(=O)c(C(=O)NCc3c(F)cc(F)cc3F)cn12 [Example C19, (1R,2S,6S,Z)-9-hydroxy-2,6-dimethyl-8,10-dioxo-N-(2,4,6-trifluorobenzyl)-3,6,8,10-tetrahydro-2H-1,7-methanopyrido[1,2-b][1,2,5]triazecine-11-carboxamide]
  RLUC Shift: 148

## O=C(NCc1c(F)cc(F)cc1F)c1cn2c(c(O)c1=O)C(=O)N1CCCCN2C1 [Example C108, (1R)-8-hydroxy-7,9-dioxo-N-(2,4,6-trifluorobenzyl)-2,3,4,5,7,9-hexahydro-1,6-methanopyrido[1,2-b][1,2,5]triazonine-10-carboxamide]
  RLUC Shift: 212

## C[C@@H]1CC[C@H](CF)N2CN1n1cc(C(=O)NCc3ccc(F)cc3F)c(=O)c(O)c1C2=O [Example C49b, (1S,10R,13R)—N-[(2,4-difluorophenyl)methyl]-10-(fluoromethyl)-6-hydroxy-13-methyl-5,8-dioxo-1,2,9-triazatricyclo[7.4.1.02,7]tetradeca-3,6-diene-4-carboxamide]
  RLUC Shift: 450

## C[C@H]1CC[C@@H](C(F)F)N2CN1C(=O)c1c(O)c(=O)c(C(=O)NCc3c(F)cc(F)cc3F)cn12 [Example C78, (1S,2S,5S)-2-(difluoromethyl)-8-hydroxy-5-methyl-7,9-dioxo-N-(2,4,6-trifluorobenzyl)-2,3,4,5,7,9-hexahydro-1,6-methanopyrido[1,2-b][1,2,5]triazonine-10-carboxamide]
  RLUC Shift: 2470

## C[C@@H]1CCC[C@H](C)N2CN1n1cc(C(=O)NCc3c(F)cc(F)cc3F)c(=O)c(O)c1C2=O [Example C14, (1R,2S,6R)-9-hydroxy-2,6-dimethyl-8,10-dioxo-N-(2,4,6-trifluorobenzyl)-3,4,5,6,8,10-hexahydro-2H-1,7-methanopyrido[1,2-b][1,2,5]triazecine-11-carboxamide]
  RLUC Shift: 44

## CO[C@@H]1C=C[C@H](C)N2CN1n1cc(C(=O)NCc3c(F)cc(F)cc3F)c(=O)c(O)c1C2=O [Example C46, (1R,2R,5S)-8-hydroxy-2-methoxy-5-methyl-7,9-dioxo-N-(2,4,6-trifluorobenzyl)-2,5,7,9-tetrahydro-1,6-methanopyrido[1,2-b][1,2,5]triazonine-10-carboxamide]
  RLUC Shift: 1071

## C[C@H]1C=CC(C)(C)N2CN1n1cc(C(=O)NCc3ccc(F)cc3F)c(=O)c(O)c1C2=O [Example C92, (1S,2S)—N-(2,4-difluorobenzyl)-8-hydroxy-2,5,5-trimethyl-7,9-dioxo-2,5,7,9-tetrahydro-1,6-methanopyrido[1,2-b][1,2,5]triazonine-10-carboxamide]
  RLUC Shift: 368

## C[C@@H]1C[C@H](F)[C@H](C)N2CN1n1cc(C(=O)NCc3c(F)cc(F)cc3F)c(=O)c(O)c1C2=O [Example C34, (1S,2R,4S,5S)-4-fluoro-8-hydroxy-2,5-dimethyl-7,9-dioxo-N-(2,4,6-trifluorobenzyl)-2,3,4,5,7,9-hexahydro-1,6-methanopyrido[1,2-b][1,2,5]triazonine-10-carboxamide]
  RLUC Shift: 1587
